Measured values from several laboratories, pooled; numbers as filed in NIAID ChemDB.

All rows: whole-cell or culture tests; organism: Candida albicans; read-out: zone

An empty or dashed field is not shown. Rows are shuffled and stem from different studies. Zone: diameter of growth inhibition.

smiles	dose	strain	method	value
COc1ccc(C2SCC(=O)N2NC(=O)Cn2c(=O)c(C)nc3ccccc32)cc1O	100 µg/mL	-	-	18 mm
O=c1[nH]c(=S)[nH]c2nc(-c3ccccn3)c(-c3ccccn3)nc12	500 mg/mL	-	-	20 mm
COc1ccc(/C=C/c2nc3ccc([N+](=O)[O-])cc3[nH]2)c(OC)c1OC	25 µg/mL	-	-	11.04 mm
Cc1nc2ccccc2n(CC(=O)NN2C(=O)CSC2c2ccccc2F)c1=O	50 µg/mL	-	-	8 mm
Fc1cccc(-c2nnc(CN3CCC(n4nc5ccccc5n4)CC3)o2)c1F	600 µg/mL	-	-	5.25 mm
O=C(OC(CCn1ccnc1)c1ccccc1)c1ccncc1	1000 µg	-	agar diffusion	14 mm
C=CC(C)(C)c1cc(C2CC(=O)c3c(cc(O)c(CC=C(C)C)c3O)O2)c(O)cc1O	2 mg/mL	hemoculture isolate 15564	agar diffusion / agar	12 mm
CC(C)(C)c1cc(-c2nnc(CN3CCC(n4nc5ccccc5n4)CC3)o2)cc(C(C)(C)C)c1	1200 µg/mL	-	-	29.85 mm
O=C(OC(CCn1ccnc1)c1ccccc1)c1ccc(Cl)c(Cl)c1	1000 µg	-	agar diffusion	17 mm
COc1ccccc1/C=N/c1nnc(-c2cc3ccccc3oc2=O)o1	100 µg/mL	ATCC 10231	agar diffusion	13 mm
COc1ccc(C2SCC(=O)N2NC(=O)Cn2c(=O)c(C)nc3ccccc32)cc1	50 µg/mL	-	-	11 mm
Cc1ccc(-c2nn(-c3ccc(S(N)(=O)=O)cc3)c3nc(-c4ccc(Cl)cc4)cc(C(F)(F)F)c23)cc1	4000 µg/mL	MTCC 227	agar diffusion / agar	0 mm
O=C(OC(CCn1ccnc1)c1ccccc1)c1ccco1	1000 µg	-	agar diffusion	17 mm
NS(=O)(=O)c1ccc(-n2nc(-c3ccc(Cl)cc3)c3c(C(F)(F)F)cc(-c4ccccc4)nc32)cc1	4000 µg/mL	MTCC 227	agar diffusion / agar	0 mm
O=c1[nH]cnc2nc(-c3ccccn3)c(-c3ccccn3)nc12	500 mg/mL	-	-	30 mm
C/C=C/C1=CC2=CC(=O)[C@](C)(OC(=O)c3c(OC)cc(O)c(O)c3C)C(=O)C2=CO1	1 µg/disc	ATCC 64548	agar diffusion	0 mm
COc1ccc(C(CCn2ccnc2)OC(=O)c2ccc(Cl)cc2)cc1	1000 µg	-	agar diffusion	16 mm
COc1ccc(-c2nn(-c3ccccc3)cc2C2CC(c3ccc(SC)cc3)=NN2c2ccccc2)cc1	500 µg/mL	MTCC 227	-	0 mm
NS(=O)(=O)c1ccc(-n2nc(-c3ccc(Cl)cc3)c3c(C(F)(F)F)cc(-c4ccc(Br)cc4)nc32)cc1	4000 µg/mL	MTCC 227	agar diffusion / agar	0 mm
COc1ccc(-c2nn(-c3ccccc3)cc2C2CC(c3ccc(Cl)cc3Cl)=NN2c2ccccc2)cc1	1000 µg/mL	MTCC 227	-	0 mm
COC1=CC(=O)C[C@@H](C)[C@]12Oc1c(Cl)c(OC)cc(OC)c1C2=O	6 µg/mL	-	-	20 mm
CCCCOCc1c(O)cc2c(c1O)C(=O)c1ccccc1C2=O	13.3 µg/disc	-	agar diffusion	<6.2 mm
COc1ccc(/C=C/c2nc3ccc(Cl)cc3[nH]2)cc1OC	25 µg/mL	-	-	12.36 mm
O=c1oc2ccccc2cc1-c1nnc(/N=C/c2ccccc2Cl)o1	100 µg/mL	ATCC 10231	agar diffusion	13 mm
NS(=O)(=O)c1ccc(-n2nc(-c3ccccc3)c3c(C(F)(F)F)cc(-c4ccc(-c5ccc6ccccc6c5)cc4)nc32)cc1	4000 µg/mL	MTCC 227	agar diffusion / agar	0 mm
COc1c(CO)c(O)cc2c1C(=O)c1ccccc1C2=O	13.3 µg/disc	-	agar diffusion	0 mm
O=C(OC(CCn1ccnc1)c1ccccc1)c1ccc(Cl)s1	1000 µg	-	agar diffusion	16 mm
CSc1ccc(C2=NN(c3ccccc3)C(c3cn(-c4ccccc4)nc3-c3ccccc3)C2)cc1	500 µg/mL	MTCC 227	-	0 mm
COc1cccc(-c2nnc(CN3CCC(n4nc5ccccc5n4)CC3)o2)c1	1200 µg/mL	-	-	17.25 mm
O=c1[nH]c(=O)c2nc(-c3ccccn3)c(-c3ccccn3)nc2[nH]1	250 mg/mL	-	-	20 mm
CSc1ccc(C2=NN(c3ccccc3)C(c3cn(-c4ccccc4)nc3-c3ccc(Cl)cc3)C2)cc1	500 µg/mL	MTCC 227	-	1 mm
Nc1[nH]c(=O)nc2nc(-c3ccccn3)c(-c3ccccn3)nc12	500 mg/mL	-	-	30 mm
Cc1nc2ccccc2n(CC(=O)NN2C(=O)CSC2c2ccccc2O)c1=O	100 µg/mL	-	-	14 mm
O=C(OC(CCn1ccnc1)c1ccccc1)c1ccc(C(F)(F)F)cc1	1000 µg	-	agar diffusion	14 mm
COc1cc2c(c(O)c1C)C(=O)c1c(ccc(OC)c1O)C2=O	13.3 µg/disc	-	agar diffusion	7.5 mm
O=[N+]([O-])c1ccc(-c2nnc(CN3CCC(n4nc5ccccc5n4)CC3)o2)cc1Cl	300 µg/mL	-	-	2.87 mm
O=c1ncc2nc(-c3ccccn3)c(-c3ccccn3)nc2[nH]1	250 mg/mL	-	-	23 mm
O=c1oc2ccccc2cc1-c1nnc(/N=C/c2cccc(F)c2)o1	100 µg/mL	ATCC 10231	agar diffusion	11 mm
Cn1c(=S)[nH]c2nc(-c3ccccn3)c(-c3ccccn3)nc2c1=O	250 mg/mL	-	-	0 mm
CC1(C)C=C2C3CCC4[C@@]5(C)CC[C@H](OC(=O)/C=C\c6ccc(O)cc6)C(C)(C)C5CC[C@@]4(C)[C@]3(C)CC[C@@]2(C)CC1	30 mg/disc	UPCC 2168	agar diffusion	11 mm
CN(C)c1ccc(/C=N/c2nnc(-c3cc4ccccc4oc3=O)o2)cc1	100 µg/mL	ATCC 10231	agar diffusion	16 mm
O=[N+]([O-])c1ccc(/C=C/c2nc3ccc([N+](=O)[O-])cc3[nH]2)cc1	25 µg/mL	-	-	10.08 mm
CSc1ccc(C2=NN(c3ccccc3)C(c3cn(-c4ccccc4)nc3-c3ccc(Br)cc3)C2)cc1	1000 µg/mL	MTCC 227	-	4 mm
CC1(C)C=C2[C@H]3CC[C@@H]4[C@@]5(C)CC[C@H](O)C(C)(C)[C@@H]5CC[C@@]4(C)[C@]3(C)CC[C@@]2(C)CC1	30 mg/disc	UPCC 2168	agar diffusion	12 mm

2 of the rows above, restated:

smiles,dose,strain,method,value
CCCCOCc1c(O)cc2c(c1O)C(=O)c1ccccc1C2=O,13.3 µg/disc,-,agar diffusion,<6.2 mm
O=C(OC(CCn1ccnc1)c1ccccc1)c1ccc(C(F)(F)F)cc1,1000 µg,-,agar diffusion,14 mm